According to patent publication US20240390459A1, “ANTI-DEPRESSION AND ANTI-ANXIETY APPLICATION OF POLYPEPTIDE AND COMPLEX” (SHENZHEN CHENYANG BIOLOGICAL TECHNOLOGY CO., LTD, priority 2021, published 2024):

B1: TAT-5HT2AR-CT: CT region (K385-V471) of 5-HT2AR fused with TAT (peptide, UniProt P28223 385-471, looked up, fragment)
chain: KTYRSAFSRYIQCQYKENKKPLQLILVNTIPALAYKSSQLQMGQKKNSKQDAKTTDNDCSMVALGKQHSEEASKDNSDGVNEKVSCV
modifications: C-terminal region fused with TAT peptide
notes: CT region (K385-V471) of 5-HT2AR fused with TAT

Test system: mice
Test: Elevated plus maze test (EPM)
Format: in vivo, mouse
Settings: single intraperitoneal 3 nmol/g, 1 hour after treatment, 5 min, vs TAT
Protocol: To evaluate the antianxiety-like effect of the polypeptide of the present invention, mice treated with TAT-5HT2AR-SV, TAT-5HT2AR-DV, TAT-5HT2AR-CT (all treated by single intraperitoneal administration, 3 nmol/g) were subjected to open field test (OFT) for measuring residence time in central area and elevated plus maze test (EPM) 1 hour after treatment, with TAT-treated mice as control. Methods for the tests are as follows:
EPM: consists of two open arms (25 cm×8 cm) and two closed arms (25 cm×8 cm), with the intersection as the central area (8 cm×8 cm), which is 40 cm high from the ground. 1 hour after treated with the polypeptide, mice were placed in the central area facing the open arm, and were recorded for their free activities for 5 min. After each animal was tested, the device was wiped with 70% alcohol. The residence time at the open arm, the residence time at the closed arm, and the total movement distance of mice were recorded.

Molecule	EPM total movement ability (total movement distance)
TAT-5HT2AR-DV: DV region (D442-V471) of 5-HT2AR fused with TAT (DCSMVALGKQHSEEASKDNSDGVNEKVSCV; C-terminal region fused with TAT peptide; UniProt P28223 442-471, looked up, fragment)	did not affect the total movement ability of mice
B1	did not affect the total movement ability of mice
